Patent publication US8790898B2 (priority 2008, dated 2014)

Columns and labels:
HIV-1 BZ 167 = format: cell-based
[1] = system: CBD1 peptide and CBD1- and CBM-based peptides; set-up: species or system BALB/c mice; conditions: mouse, in vivo, sc

## K-Q-M-N-M-W-Q-V-V-G-KA-M-Y-A-K-K-I-W-N-N-M-T-W-M-Q-W-D-K (KQMNMWQVVGKAMYAKKIWNNMTWMQWDK; K30K - chimeric peptide T cell epitope from HIV-1 gp 120 421-438 fused to a caveolin-1 binding domain from HIV-1 gp41 protein)
HIV-1 BZ 167
  % inhibition of HIV-1 at 200-fold dilution: 61%
  Neutralizing activity ID50: 200-fold
[1]
  ELISA titer against C17K: 2.02 ± 0.41
  IgG2/IgG1 ratio: 6.66
